Measured values from several laboratories, pooled; numbers as filed in NIAID ChemDB.

Common to all: growth or infection tests; organism: HIV-1; cell line: HeLa; read-out: EC50

Blank or dashed fields: not listed here. ECn: concentration that inhibits the pathogen or its effect by n%. Conditions beyond the fields shown may differ between rows.

{"structure": "O=C(O)CCc1ccc(CCCC2(O)CCN(C[C@H]3CN(CC4CCCCC4)C[C@@H]3c3ccccc3)CC2)cc1", "strain or isolate": "BaL", "read by": "β-galactosidase", "value": "<0.04 µM"}
{"structure": "COC(=O)N[C@H](C(=O)N[C@@H](Cc1ccccc1)[C@@H](O)CN(Cc1ccc(-c2ccccn2)cc1)NC(=O)[C@@H](NC(=O)OC)C(C)(C)C)C(C)(C)C", "strain or isolate": "Site-directed PR mutant 04", "changes": "PR-M46I I54V A71V V82A", "read by": "β-galactosidase", "value": "0.00339 µM"}
{"structure": "O=c1[nH]cnc2c1ncn2[C@H]1CC[C@@H](CO)O1", "changes": "RT-Y181C", "read by": "β-galactosidase", "value": "0.011 µM"}
{"structure": "Cc1ccc(-n2c(C)nnc2SCC(=O)Nc2ccccc2Br)c2ccccc12", "changes": "Y188L", "value": "0.069 µM"}
{"structure": "CNC(=O)c1cc(C#N)cc(C(=O)c2cc(Cl)ccc2OCC(=O)Nc2ccc(S(N)(=O)=O)cc2C)c1", "changes": "WTRVA", "value": "0.445 µM"}
{"structure": "Cn1c2ccccc2c2c1cc(C#N)c(=O)n2-c1ccc([N+](=O)[O-])cc1", "strain or isolate": "NNRTI-resistant", "changes": "RT-K103N L100I", "read by": "luciferase", "value": "0.0828 µM"}
{"structure": "O=C(O)[C@@H](C1CCCCC1)N1C[C@H](CN2CCC(c3[nH]ncc3CCc3ccccc3)CC2)[C@@H](c2ccccc2)C1", "strain or isolate": "BaL", "read by": "β-galactosidase", "value": "<0.033 µM"}
{"structure": "C[C@H]1O[C@@H](O[C@H]2[C@@H](O)C[C@H](O[C@H]3[C@@H](O)C[C@H](O[C@H]4CC[C@@]5(C)[C@H](CC[C@@H]6[C@@H]5C[C@@H](O)[C@]5(C)[C@@H](C7=CC(=O)OC7)CC[C@]65O)C4)O[C@@H]3C)O[C@@H]2C)C[C@H](O)[C@@H]1O", "strain or isolate": "LAI", "value": "0.045 µM"}
{"structure": "CCn1nc(Cc2ccccc2)cc1C1CCN(C[C@H]2CN([C@@H](C(=O)O)C3CCCCC3)C[C@@H]2c2cccc(F)c2)CC1", "strain or isolate": "BaL", "read by": "β-galactosidase", "value": "<0.0004 µM"}
{"structure": "N#Cc1cc2[nH]c3ccccc3c2n(-c2ccc([N+](=O)[O-])cc2)c1=O", "strain or isolate": "Recombinant", "changes": "RT-M41L A62V S68N G112S V118I M184V", "read by": "luciferase", "value": "6.14 µM"}
{"structure": "COc1ccc(-n2c(C)nnc2SCC(=O)Nc2ccc(C)cc2Cl)c2ccccc12", "changes": "Y188L", "value": "0.24 µM"}
{"structure": "Cc1cc(S(N)(=O)=O)ccc1NC(=O)COc1ccc(Cl)cc1C(=O)c1cc(Cl)cc(C#N)c1", "changes": "K103N", "value": "0.0007 µM"}
{"structure": "CCOC(=O)Cn1nc(Cc2ccccc2)cc1C1CCN(C[C@H]2CN([C@@H](C(=O)O)C3CCCCC3)C[C@@H]2c2ccccc2)CC1", "strain or isolate": "BaL", "read by": "β-galactosidase", "value": "<0.022 µM"}
{"structure": "Cc1cc(C)c2ccc(C)c(-n3c(C)nnc3SCC(=O)Nc3ccc(S(N)(=O)=O)cc3Cl)c2n1", "changes": "Y188L", "value": "0.011 µM"}
{"structure": "CCn1nc(Cc2ccc(OCc3ccccc3)cc2)cc1C1CCN(C[C@H]2CN([C@@H](C(=O)O)C(C)(C)C)C[C@@H]2c2cccc(F)c2)CC1", "strain or isolate": "BaL", "read by": "β-galactosidase", "value": "<0.0037 µM"}
{"structure": "COc1cnc(-n2ncnc2CO)c2[nH]cc(C(=O)C(=O)N3CCc4c(cccc4-c4ccccn4)C3)c12", "read by": "luciferase", "value": "<0.1 µM"}
{"structure": "OC1(CCCc2ccccc2)CCN(C[C@H]2CN(CC3CCCCC3)C[C@@H]2c2ccccc2)CC1", "strain or isolate": "BaL", "read by": "β-galactosidase", "value": "<0.2 µM"}
{"structure": "CON(C)C(=O)c1cc(C#N)cc(C(=O)c2cc(Cl)ccc2OCC(=O)Nc2ccc(S(N)(=O)=O)cc2C)c1", "changes": "Y181C", "value": "0.117 µM"}
{"structure": "CCn1cc(CCc2ccccc2)c(C2CCN(C[C@H]3CN([C@@H](C(=O)O)C4CCCCC4)C[C@@H]3c3ccccc3)CC2)n1", "strain or isolate": "BaL", "read by": "β-galactosidase", "value": "<0.3 µM"}
{"structure": "CC[C@]1(CO)O[C@@H](n2cc(C)c(=O)[nH]c2=O)C[C@@H]1O", "strain or isolate": "RTMDR", "changes": "RT", "read by": "β-galactosidase", "value": ">100 µM"}
{"structure": "Cc1ccc2c(C)ccnc2c1-n1c(C)nnc1SCC(=O)Nc1ccc(S(N)(=O)=O)cc1Cl", "value": "0.0006 µM"}
{"structure": "CCn1nc(Cc2ccc(O)cc2)cc1C1CCN(C[C@H]2CN([C@@H](C(=O)O)C(C)(C)C)C[C@@H]2c2cccc(F)c2)CC1", "strain or isolate": "BaL", "read by": "β-galactosidase", "value": "<0.0004 µM"}
{"structure": "Nc1ccn([C@H]2C[C@H](O)[C@](CO)(CF)O2)c(=O)n1", "changes": "RT-L74V", "read by": "β-galactosidase", "value": "0.0019 µM"}
{"structure": "CC[C@H](C)[C@H](C(=O)O)N1C[C@H](CN2CCC(c3cc(Cc4ccc(OCC(F)(F)F)cc4)nn3CC)CC2)[C@@H](c2cccc(F)c2)C1", "strain or isolate": "BaL", "read by": "β-galactosidase", "value": "<0.0004 µM"}
{"structure": "O=C(O)Cc1ccc(CCCC2(O)CCN(C[C@H]3CN(CC4CCCCC4)C[C@@H]3c3ccccc3)CC2)cc1", "strain or isolate": "BaL", "read by": "β-galactosidase", "value": "<0.1 µM"}
{"structure": "Cn1ncc(CCc2ccccc2)c1C1CCN(C[C@H]2CN([C@@H](C(=O)O)C3CCCCC3)C[C@@H]2c2ccccc2)CC1", "strain or isolate": "BaL", "read by": "β-galactosidase", "value": "<0.0037 µM"}
{"structure": "CCn1nc(Cc2ccc(OCC(F)(F)F)cc2)cc1C1CCN(C[C@H]2CN([C@@H](C(=O)O)C(C)(C)C)C[C@@H]2c2cccc(F)c2)CC1", "strain or isolate": "BaL", "read by": "β-galactosidase", "conditions": "50% human serum", "value": "<0.1 µM"}
{"structure": "OC[C@H]1O[C@@H](n2cnc3cc(Cl)c(Cl)cc32)[C@H](O)[C@@H]1O", "strain or isolate": "NL4-3 Recombinant VSV-pseudotyped", "read by": "luciferase", "value": "<50 µM"}
{"structure": "Cc1cccc(NC(=O)CSc2nnc(C)n2-c2ccccc2)c1C", "value": "0.0005 µM"}
{"structure": "CC[C@@H](C)[C@H](C(=O)O)N1C[C@H](CN2CCC(c3cc(Cc4ccc(OCc5ccccc5)cc4)nn3CC)CC2)[C@@H](c2cccc(F)c2)C1", "strain or isolate": "BaL", "read by": "β-galactosidase", "value": "<0.0037 µM"}
{"structure": "Cc1cc(S(N)(=O)=O)ccc1NC(=O)COc1ccc(Cl)cc1C(=O)c1cc(C#N)cc(CO)c1", "changes": "V106A", "value": "0.067 µM"}
{"structure": "O=C(O)[C@@H](C1CCCCC1)N1C[C@H](CN2CCC(c3cc(Cc4ccccc4)[nH]n3)CC2)[C@@H](c2ccccc2)C1", "strain or isolate": "BaL", "read by": "β-galactosidase", "value": "<0.0004 µM"}
{"structure": "Cc1ccc2cc(Cl)cnc2c1-n1c(C)nnc1SCC(=O)Nc1ccc(S(N)(=O)=O)cc1Cl", "changes": "Y188L", "value": "0.1 µM"}

For reference, 4 entries again:

structure,strain or isolate,changes,read by,conditions,value
CC[C@]1(CO)O[C@@H](n2cc(C)c(=O)[nH]c2=O)C[C@@H]1O,RTMDR,RT,β-galactosidase,-,>100 µM
COc1ccc(-n2c(C)nnc2SCC(=O)Nc2ccc(C)cc2Cl)c2ccccc12,-,Y188L,-,-,0.24 µM
CCn1cc(CCc2ccccc2)c(C2CCN(C[C@H]3CN([C@@H](C(=O)O)C4CCCCC4)C[C@@H]3c3ccccc3)CC2)n1,BaL,-,β-galactosidase,-,<0.3 µM
CON(C)C(=O)c1cc(C#N)cc(C(=O)c2cc(Cl)ccc2OCC(=O)Nc2ccc(S(N)(=O)=O)cc2C)c1,-,Y181C,-,-,0.117 µM